Results of unrelated studies side by side (data: NIAID ChemDB).

All rows: growth or infection tests; species: Mycobacterium tuberculosis

MIC50, MIC90 and the like: level of inhibition, or share of isolates inhibited.

smiles | tested at | cell line | measure | read by | strain | value
Cc1c(Cl)cccc1N=Nc1c(O)c2ccc([N+](=O)[O-])cc2[nH]c1=O | 6.25 µg/mL |  | inhibition | resazurin | H37Rv | 98%
CC(O)(c1ccco1)c1nc2ccccc2s1 |  |  | MIC bound |  | H37Rv | >6.25 µg/mL
COc1ccc2[nH]c(=O)c(N=Nc3ccccc3)c(O)c2c1 | 6.25 µg/mL |  | inhibition | resazurin | H37Rv | 0%
N=NC(=S)NC(=O)c1ccncc1 |  |  | MIC |  | H37Rv | 5 µg/mL
CO[C@H]1[C@@H](O)[C@H](n2ccc(=O)[nH]c2=O)O[C@@H]1[C@@H](O[C@H]1OC(C(=O)N[C@H]2CCC[C@@H](C)NC2=O)=C[C@H](O)[C@@H]1O)C(N)=O |  |  | MIC | broth dilution | H37Rv | 8 µg/mL
CN1N=C(c2ccncc2)OC1c1ccc(Cl)cc1Cl |  |  | MIC |  | 16PI | >1 µg/mL
O=c1[nH]c2cc([N+](=O)[O-])ccc2c(O)c1N=Nc1ccc(F)cc1 | 6.25 µg/mL |  | inhibition | resazurin | H37Rv | 100%
C=CCn1c(O)c(/C=C2\C=CC(=O)c3ncccc32)s/c1=N\c1nc2ccccc2s1 |  |  | MIC |  | H37Rv | 12.5 µg/mL
COc1ccc(-c2coc3c4c(c(CC=C(C)C)c(O)c3c2=O)OC(C)(C)C=C4)cc1OC |  |  | MIC bound | BACTEC | H37Rv | >12.5 µg/mL
CC(C)N=c1cc2n(-c3ccc(Cl)cc3)c3ccccc3nc-2cc1Nc1ccc(Cl)cc1 |  |  | MIC |  | H37Rv | 1.3 µg/mL
C=CCN1C(=O)/C(=C/c2ccc(O)cc2)S/C1=N\c1nc2ccccc2s1 |  |  | MIC |  | H37Rv | ≥25 µg/mL
COC(=O)C(Cc1c[nH]c2ccccc12)NC(=O)C(Cc1c[nH]c2ccccc12)NC(=O)C(Cc1c[nH]c2ccccc12)NC(=O)C(Cc1c[nH]c2ccccc12)NC(=O)C(Cc1c[nH]c2ccccc12)NC(=O)C(Cc1c[nH]c2ccccc12)NC(=O)OC(C)(C)C |  |  | MIC bound | BACTEC | H37Rv | >12.5 µg/mL
O=C(Nc1ccc(Cl)c(Cl)c1)c1ccccc1O |  |  | MIC |  | CNCTC MY331/88 | 8 µM
CN1N=C(c2ccncc2)OC1c1cccc(F)c1 |  |  | MIC |  | H37Rv | >20 µg/mL
CNn1cc(C(=O)O)c(=O)c2cc(F)c(N3CCN(C)CC3)cc21 |  |  | MIC |  | 10 strains | ≤4 µg/mL
O=c1[nH]c2cc([N+](=O)[O-])ccc2c(O)c1N=Nc1ccc(Cl)c(F)c1 |  |  | MIC | resazurin | H37Rv | <6.25 µg/mL
O=C(NNC(=S)Nc1ccc(C(=O)O)c(O)c1)c1ccncc1 | 12.5 µg/mL |  | inhibition | resazurin | H37Rv | 96%
COc1c(/C=N/NC(N)=O)c(OC)c(OC)c2c1CCO2 |  |  | MIC bound | BACTEC | H37Rv | >12.5 µg/mL
Nc1cccc(-c2cn(CC(Oc3ccc(Cl)cc3)c3ccc(Cl)cc3Cl)nn2)c1 |  |  | MIC | GFP / reporter gene | H37Rv | >256 µg/mL
Cc1cc(C)nc(NS(=O)(=O)c2ccc(NC(=O)C(C)(C)C)cc2)n1 |  |  | MIC |  | H37Rv | 10 µg/mL
CC(=O)Oc1ccc(/C=C/c2cc(O)cc(O)c2)cc1 |  |  | MIC |  |  | 32 µg/mL
O=C(CNC(=O)c1ccccc1)N/N=C/c1cccc2ccccc12 |  |  | MIC | BACTEC | H37Rv | 12.5 µg/mL
CN1N=C(c2ccncc2)OC1c1cccc(C(F)(F)F)c1 |  |  | MIC |  | 16PI | 5 µg/mL
O=C(Nc1cccc(F)c1)c1cc(Br)ccc1O |  |  | MIC |  | CNCTC MY331/88 | 8 µM
CCOc1ccc(N2C(=O)/C(=C/c3cccnc3)S/C2=N\c2ccccn2)cc1 |  |  | MIC |  | H37Rv | ≥25 µg/mL
CC(C)[C@H]1CO[C@]23CC[C@H](N(Cc4ccc(C(F)(F)F)cc4)C4CN(CCCC(F)(F)F)C4)C[C@H]2CCC(=O)N13 |  |  | MIC | resazurin |  | <0.5 µM
CC1(C)N=C(N)N=C(N)N1c1ccc(Cl)c(CCCCc2ccc(S(=O)(=O)F)cc2)c1.CCS(=O)(=O)O |  |  | MIC bound | BACTEC | H37Rv | >12.5 µg/mL
CC(C)[C@H]1CO[C@]23CC[C@H](N(Cc4ccc(C(F)(F)F)cc4)C(C)C4CN(C(=O)OC(C)(C)C)C4)C[C@H]2CCC(=O)N13 |  |  | MIC | resazurin |  | 0.5–5 µM
O=C1Nc2ccc([N+](=O)[O-])cc2[C@]12N1CSC[C@H]1[C@H](c1ccc(Cl)cc1)[C@]21Cc2ccccc2C1=O |  |  | MIC99 | agar | H37Rv | 24.1 µM
C=CCN1C(=O)/C(=C/C2Oc3ccccc3O2)S/C1=N\c1nc2ccccc2s1 |  |  | MIC |  | H37Rv | ≥25 µg/mL
CN(C)c1ccc(NC(=O)c2cc(F)ccc2O)cc1 |  |  | MIC |  | CNCTC MY331/88 | 31 µM
Cn1c2ccccc2c(=O)c2c(O)cc3c(c21)N=CC(C)(C)O3.O=C(O)C(F)(F)F | 12.5 µg/mL |  | inhibition | BACTEC | H37Rv | 1%
CCCCc1ccc(Nc2c(C#N)[n+]([O-])c3cc(Cl)ccc3[n+]2[O-])cc1 |  |  | MIC |  | H37Rv | <12.5 µg/mL
O=C1Nc2ccc([N+](=O)[O-])cc2[C@]12N1CSC[C@H]1[C@H](c1ccccc1Cl)[C@]21Cc2ccccc2C1=O |  |  | MIC99 | agar | H37Rv | 12.1 µM
O=c1[nH]c2cc(Cl)ccc2c(O)c1N=Nc1ccccc1 |  |  | MIC | resazurin | H37Rv | <6.25 µg/mL
O=C(O)c1ccc(-n2c(-c3ccncc3)n[nH]c2=S)cc1O | 12.5 µg/mL |  | inhibition | resazurin | H37Rv | 90%
Cc1ccccc1[C@H]1[C@@H]2CSCN2[C@@]2(C(=O)Nc3ccccc32)[C@@]12Cc1ccccc1C2=O |  |  | MIC99 | agar | H37Rv | 55.2 µM
O=C(O)c1ccc(N2C(=O)C(C(=O)C(F)(F)F)C(=O)N(c3ccc(S(=O)(=O)Nc4ncccn4)cc3)C2=S)cc1O |  |  | MIC90 | broth dilution | H37Rv | <12.5 µg/mL
CCOc1ccc(N2C(=O)/C(=C/c3ccc(Cl)cc3Cl)S/C2=N\c2ccccn2)cc1 |  |  | MIC |  | H37Rv | ≥25 µg/mL
CC(C)[C@H]1CO[C@]23CC[C@@H](OC(c4ccc(C(F)(F)F)cc4)c4ccc(C(F)(F)F)cc4)C[C@H]2CCC(=O)N13 |  |  | MIC | resazurin |  | <0.5 µM
Cc1ccnc(NS(=O)(=O)c2ccc(N3C(=O)CC(=O)N(c4ccc(C(=O)O)c(O)c4)C3=S)cc2)n1 |  |  | MIC90 | broth dilution | H37Rv | >12.5 µg/mL
CC1(C)CC(N(C(=O)/C=C/c2ccc([N+](=O)[O-])o2)C2CCCCC2)CC(C)(C)N1 |  |  | MIC bound | BACTEC | H37Rv | >12.5 µg/mL
CN(C)c1ccc(NC(=O)c2cc([N+](=O)[O-])ccc2O)cc1 |  |  | MIC |  | CNCTC MY331/88 | 31 µM
O=C1Nc2ccc([N+](=O)[O-])cc2[C@]12N1CSC[C@H]1[C@H](c1cccc(Cl)c1Cl)[C@]21Cc2ccccc2C1=O |  |  | MIC99 | agar | H37Rv | 2.8 µM
CN1N=C(c2ccncc2)OC1c1ccc(C(F)(F)F)cc1 |  |  | MIC |  | 16PI | >20 µg/mL
CC(=O)c1c(OCC(O)CN(CCO)CCO)ccc2c(C)cc(=O)oc12 | 6.25 µg/mL |  | inhibition | resazurin | H37Rv | 34%
C=CCN1C(=O)/C(=C/c2ccc(N(C)C)cc2)S/C1=N\c1nc2ccccc2s1 |  |  | MIC |  | H37Rv | ≥25 µg/mL
Clc1ccc(OC(Cn2nnc3ccccc32)c2ccc(Cl)cc2Cl)cc1 |  |  | MIC | GFP / reporter gene | H37Rv | >256 µg/mL
O=C1c2ccccc2C(=O)c2sc(Nc3ccccc3Cl)nc21 | 12.5 µg/mL |  | inhibition | BACTEC | H37Rv | 100%
CN1N=C(c2ccncc2)OC1c1ccc(F)cc1 |  |  | MIC |  | 16PI | >20 µg/mL
Oc1cc(O)cc(/C=C/c2ccc(O)c(O)c2)c1 |  |  | MIC |  |  | 128 µg/mL
CCOC(=O)c1nc2nc(Cl)c(Cl)nc2[nH]1 |  | VERO | MIC | BACTEC | H37Rv | 12.5 µg/mL
Cc1c(N2C(=O)CC(=O)N(c3ccc(C(=O)O)c(O)c3)C2=S)c(=O)n(-c2ccccc2)n1C |  |  | MIC90 | broth dilution | H37Rv | >12.5 µg/mL
O=c1[nH]c2c(Cl)c(Cl)ccc2c(O)c1N=Nc1cccc(Cl)c1 |  |  | MIC | resazurin | H37Rv | <6.25 µg/mL
COC1(OC)CCCCC2c3cccc(OC(C)=O)c3C21OC(C)=O | 12.5 µg/mL |  | inhibition | BACTEC | H37Rv | 10%
CCCCC[C@H]1CCCCCCCCCC(=O)OC[C@H]2OC(O[C@H]3[C@H](O1)O[C@H](C)[C@H](O)[C@@H]3O)[C@H](OC1O[C@@H](C)[C@H](OC(=O)[C@H](C)[C@@H](C)O)[C@@H](OC3O[C@@H](C)[C@H](O)[C@@H](O)[C@H]3O)[C@H]1OC(=O)C(C)CC)[C@@H](O)[C@@H]2O |  |  | MIC |  |  | 16 µg/mL
O=C1Nc2ccccc2[C@]12N1CSC[C@H]1[C@H](c1ccccc1Cl)[C@]21Cc2ccccc2C1=O |  |  | MIC99 | agar | H37Rv | 26.4 µM
CN(Cc1cc(Br)cc(Br)c1O)Cn1c2ccccc2c2ccccc21 | 12.5 µg/mL |  | inhibition | BACTEC | H37Rv | 6%
C=CCN1C(=O)/C(=C\c2cccs2)S/C1=N\c1nc2ccccc2s1 |  |  | MIC |  | H37Rv | ≥25 µg/mL
O=C1Nc2ccc(Cl)cc2[C@]12N1CSC[C@H]1[C@H](c1ccc(F)cc1)[C@]21Cc2ccccc2C1=O |  |  | MIC99 | agar | H37Rv | 12.7 µM
Cc1cc(C2(c3cc(C)c(O)cc3C)OS(=O)(=O)c3ccccc32)c(C)cc1O | 12.5 µg/mL |  | inhibition | BACTEC | H37Rv | 0%
Oc1cc(O)c2c(c1)O[C@H](c1ccc(O)c(O)c1)[C@@H](O)C2 |  |  | MIC |  |  | >128 µg/mL
CCCC/C(C)=N/NC(=S)SC |  |  | MIC |  | ETA-R | 6.4 µg/mL
CC(C)[C@H]1CO[C@]23CC[C@@H](OC(c4ccc(F)cc4)c4ccc(F)cc4)C[C@H]2CCC(=O)N13 |  |  | MIC | resazurin |  | <0.5 µM
COc1ccc2oc3cc(NCCN(C)C)ccc3c(=O)c2c1 |  |  | MIC | BACTEC | H37Rv | ≥12.5 µg/mL
CC(C)[C@H]1CO[C@]23CC[C@H](N(Cc4ccc(C(F)(F)F)cc4)C4CCNCC4)C[C@H]2CCC(=O)N13 |  |  | MIC | resazurin |  | <0.5 µM
COc1ccc2c(c1)n([O-])c1ccccc1[n+]2=O |  |  | MIC | BACTEC | H37Rv | 0.8 µg/mL
C=CCN1C(=O)/C(=C/c2ccccc2)S/C1=N\c1nc2ccccc2s1 |  |  | MIC |  | H37Rv | ≥25 µg/mL
O=C(N/N=C/c1cc(=O)[nH]c(=O)[nH]1)c1ccccc1 |  |  | MIC | BACTEC | H37Rv | ≥12.5 µg/mL
CC(C)(C)C(=O)Nc1ccc(C(=O)O)c(O)c1 |  |  | MIC |  | H37Rv | 5 µg/mL
CC(C)C1CC(C)(O)N=C(c2ccccc2)S1 | 6.25 µg/mL |  | inhibition |  | H37Rv | 0%
CC(C)=CC1C(C(=O)O)C1(C)C |  |  | MIC | BACTEC | H37Rv | ≥128 µg/mL
Cc1ccc([C@H]2[C@@H]3CSCN3[C@@]3(C(=O)Nc4ccccc43)[C@@]23Cc2ccccc2C3=O)cc1 |  |  | MIC99 | agar | H37Rv | 55.2 µM
CC(C)[C@H]1CO[C@]23CC[C@H](NCc4cc(C(F)(F)F)nc5cc(F)c(F)cc45)C[C@H]2CCC(=O)N13 |  |  | MIC | resazurin |  | <0.5 µM
CC(C)CCOc1ccc(NC(=S)Nc2ccc(OCCC(C)C)cc2)cc1 |  |  | MIC |  | Isolates ethionamide/thioacetazone-sensitive | 0.5–5 µg/mL
CC(C)[C@H]1CO[C@]23CC[C@H](N(Cc4ccc(C(F)(F)F)cc4)C4CN(C(=O)OC(C)(C)C)C4)C[C@H]2CCC(=O)N13 |  |  | MIC | resazurin |  | <0.5 µM
COc1ccc([C@@H]2CC(=O)c3c(O)cc(O[C@@H]4O[C@H](CO[C@@H]5O[C@@H](C)[C@H](O)[C@@H](O)[C@H]5O)[C@@H](O)[C@H](O)[C@H]4O)cc3O2)cc1O | 12.8 µg/mL |  | inhibition | BACTEC | H37Rv | 4%
CC(C)[C@H]1CO[C@]23CC[C@H](NCc4cc(C(F)(F)F)nc5cc(F)ccc45)C[C@H]2CCC(=O)N13 |  |  | MIC | resazurin |  | <0.5 µM
O=C(Nc1cccc(Cl)c1)c1cc(Br)ccc1O |  |  | MIC |  | CNCTC MY331/88 | 8 µM

A second listing of 7 rows from above:

smiles | tested at | cell line | measure | read by | strain | value
CC1(C)CC(N(C(=O)/C=C/c2ccc([N+](=O)[O-])o2)C2CCCCC2)CC(C)(C)N1 |  |  | MIC bound | BACTEC | H37Rv | >12.5 µg/mL
CC(=O)c1c(OCC(O)CN(CCO)CCO)ccc2c(C)cc(=O)oc12 | 6.25 µg/mL |  | inhibition | resazurin | H37Rv | 34%
CC(C)C1CC(C)(O)N=C(c2ccccc2)S1 | 6.25 µg/mL |  | inhibition |  | H37Rv | 0%
COc1ccc([C@@H]2CC(=O)c3c(O)cc(O[C@@H]4O[C@H](CO[C@@H]5O[C@@H](C)[C@H](O)[C@@H](O)[C@H]5O)[C@@H](O)[C@H](O)[C@H]4O)cc3O2)cc1O | 12.8 µg/mL |  | inhibition | BACTEC | H37Rv | 4%
CC(C)(C)C(=O)Nc1ccc(C(=O)O)c(O)c1 |  |  | MIC |  | H37Rv | 5 µg/mL
O=C(O)c1ccc(N2C(=O)C(C(=O)C(F)(F)F)C(=O)N(c3ccc(S(=O)(=O)Nc4ncccn4)cc3)C2=S)cc1O |  |  | MIC90 | broth dilution | H37Rv | <12.5 µg/mL
Cc1cc(C2(c3cc(C)c(O)cc3C)OS(=O)(=O)c3ccccc32)c(C)cc1O | 12.5 µg/mL |  | inhibition | BACTEC | H37Rv | 0%

Blank or dashed fields: not listed here. MIC bound comes from a single tested concentration. Conditions beyond the fields shown may differ between rows. a–b is a range or a potency band. Percent inhibition refers to the dose given; in toxicity tests it is the harm to the cells.